# Assay results from US20170253607A1.
# Assays:
# [1] = Evaluation of total body clearance (CLtot), intravenous administration; format: in vivo, Sprague-Dawley (SD); conditions: rat (SD), intravenous administration 0.5-10 mg/kg; CLtot = dose/AUC
# HIV-1 PR = HIV-1 PR (Human immunodeficiency virus type 1 group M subtype B, UniProt P04585); experiment: HIV-protease inhibitory activity assay (FRET peptide substrate); format: biochemical; conditions: Test Example 1
# [2] = Protein binding test (equilibrium dialysis, unbound ratio fu in serum); format: in vitro ADME; conditions: rat serum, equilibrium dialysis 24 hours, 37° C., 2 μg/mL
Compound,rat_CLt [1] [mL/min/kg],IC50 (HIV-1 PR) [nM],rat_fu [2] [%]
"COc1ccc(S(=O)(=O)N(CC(C)C)C[C@@H](O)[C@H](Cc2ccc(OCC3CCCCC3c3sc4c(c3C(=O)O)CC(C)(C)CC4)cc2)NC(=O)O[C@H]2CO[C@@]3(C)OCC[C@@H]23)cc1 (single isomer, unassigned) [I-10-2]",0.092,4.47,<0.1
COc1ccc(S(=O)(=O)N(CC(C)C)C[C@@H](O)[C@H](Cc2ccc(O[C@H]3CCN(c4ccccc4-c4sc5c(c4C(=O)O)CC(C)(C)CC5)C3)cc2)NC(=O)O[C@H]2CO[C@@]3(C)OCC[C@@H]23)cc1,0.985,2.15,<0.1
COc1ccc(S(=O)(=O)N(CC(C)C)C[C@@H](O)[C@H](Cc2ccc(Oc3ccc(-c4sc5c(c4C(=O)O)CC(C)(C)CC5)c(C)c3)cc2)NC(=O)O[C@H]2CO[C@@]3(C)OCC[C@@H]23)cc1,0.784,2.22,<0.1
COc1ccc(S(=O)(=O)N(CC(C)C)C[C@@H](O)[C@H](Cc2ccc(OCc3cc(OC)ccc3-c3sc4c(c3C(=O)O)CC(C)(C)CC4)cc2)NC(=O)O[C@H]2CO[C@@]3(C)OCC[C@@H]23)cc1,0.362,1.32,<0.1
COc1ccc(S(=O)(=O)N(CC(C)C)C[C@@H](O)[C@H](Cc2ccc(NCc3ccccc3-n3nc4c(c3C(=O)O)CC(C)(C)CC4)cc2)NC(=O)O[C@H]2CO[C@@]3(C)OCC[C@@H]23)cc1,0.585,1.96,<0.1
COc1ccc(S(=O)(=O)N(CC(C)C)C[C@@H](O)[C@H](Cc2ccc(N(C)C3CN(c4ccccc4-c4sc5c(c4C(=O)O)CC(C)(C)CC5)C3)cc2)NC(=O)O[C@H]2CO[C@@]3(C)OCC[C@@H]23)cc1,1.1,3.56,<0.1
CC(C)CN(C[C@@H](O)[C@H](Cc1ccccc1)NC(=O)O[C@H]1CO[C@@]2(C)OCC[C@@H]12)S(=O)(=O)c1ccc2nc(NCc3ccccc3-c3sc4c(c3C(=O)O)CC(C)(C)CC4)sc2c1,0.324,3.35,<0.1
COc1ccc(S(=O)(=O)N(CC(C)C)C[C@@H](O)[C@H](Cc2ccc(OC3CN(c4ccccc4-c4sc5c(c4C(=O)O)CC(C)(C)CC5)C3)cc2)NC(=O)O[C@H]2CO[C@@]3(C)OCC[C@@H]23)cc1,0.07,4.02,<0.1
COc1ccc(S(=O)(=O)N(CC(C)C)C[C@@H](O)[C@H](Cc2ccc(OCc3ccccc3-c3sc4c(c3C(=O)O)CC(C)(C)CC4=O)cc2)NC(=O)O[C@H]2CO[C@@]3(C)OCC[C@@H]23)cc1,1.48,0.94,<0.1
COc1ccc(S(=O)(=O)N(CC(C)C)C[C@@H](O)[C@H](Cc2ccc(NC(=O)c3ccccc3-c3sc4c(c3C(=O)O)CC(C)(C)CC4)cc2)NC(=O)O[C@H]2CO[C@@]3(C)OCC[C@@H]23)cc1,2.47,2.22,<0.1
COc1ccc(S(=O)(=O)N(CC(C)C)C[C@@H](O)[C@H](Cc2ccc(OCc3ccccc3-c3ccc(Cn4nc5c(c4C(=O)O)CC(C)(C)CC5)cc3)cc2)NC(=O)O[C@H]2CO[C@@]3(C)OCC[C@@H]23)cc1,3.97,2.86,<0.1
COc1ccc(S(=O)(=O)N(CC(C)C)C[C@@H](O)[C@H](Cc2ccc(NC[C@@H]3CCCC[C@H]3c3sc4c(c3C(=O)O)CC(C)(C)CC4)cc2)NC(=O)O[C@H]2CO[C@@]3(C)OCC[C@@H]23)cc1,0.868,3.26,<0.1
COc1ccc(S(=O)(=O)N(CC(C)C)C[C@@H](O)[C@H](Cc2ccc(OCc3cc4c(cc3-c3sc5c(c3C(=O)O)CC(C)(C)CC5)C(C)(C)CCC4(C)C)cc2)NC(=O)O[C@H]2CO[C@@]3(C)OCC[C@@H]23)cc1,2.02,40.2,<0.1
Cc1cc(Oc2ccc(C[C@H](NC(=O)O[C@H]3CO[C@@]4(C)OCC[C@@H]34)[C@H](O)CN(CC(C)C)S(=O)(=O)c3ccc4c(c3)OCO4)cc2)ccc1-c1sc2c(c1C(=O)O)CC(C)(C)CC2,1.5,3.99,<0.1
COc1ccc(S(=O)(=O)N(CC(C)C)C[C@@H](O)[C@H](Cc2ccc(N(C)S(=O)(=O)c3ccccc3-c3sc4c(c3C(=O)O)CC(C)(C)CC4)cc2)NC(=O)O[C@H]2CO[C@@]3(C)OCC[C@@H]23)cc1,4.97,3.09,<0.1
COc1ccc(S(=O)(=O)N(CC(C)C)C[C@@H](O)[C@H](Cc2ccccc2)NC(=O)O[C@H]2CO[C@@]3(CNCCCc4sc5c(c4C(=O)O)CC(C)(C)CC5)OCC[C@@H]23)cc1,1.16,1.02,<0.1
COc1ccc(S(=O)(=O)N(CC(C)C)C[C@@H](O)[C@H](Cc2ccc(OCc3ccccc3-c3sc4ccccc4c3C(=O)O)cc2)NC(=O)O[C@H]2CO[C@@]3(C)OCC[C@@H]23)cc1,7.74,1.14,<0.1
COc1ccc(S(=O)(=O)N(CC(C)C)C[C@@H](O)[C@H](Cc2ccccc2)NC(=O)O[C@H]2CO[C@@]3(CN(Cc4sc5c(c4C(=O)O)CC(C)(C)CC5)C(C)=O)OCC[C@@H]23)cc1,5.37,1.02,<0.1
COc1ccc(S(=O)(=O)N(CC(C)C)C[C@@H](O)[C@H](Cc2ccc(N(C)Cc3ccccc3-c3sc4c(c3C(=O)O)CC(C)(C)CC4)cc2)NC(=O)O[C@H]2CO[C@@]3(C)OCC[C@@H]23)cc1,2.28,2.01,<0.1
COc1ccc(S(=O)(=O)N(CC(C)C)C[C@@H](O)[C@H](Cc2ccccc2)NC(=O)O[C@H]2CO[C@@]3(CNCc4ccccc4-c4sc5c(c4C(=O)O)CC(C)(C)CC5)OCC[C@@H]23)cc1,3.87,2.11,<0.1
COc1ccc(S(=O)(=O)N(CC(C)C)C[C@@H](O)[C@H](Cc2ccc(OCc3cccc(C)c3-c3sc4c(c3C(=O)O)CC(C)(C)CC4)cc2)NC(=O)O[C@H]2CO[C@@]3(C)OCC[C@@H]23)cc1,0.363,1.79,<0.1
COc1ccc(S(=O)(=O)N(CC(C)C)C[C@@H](O)[C@H](Cc2ccc(NCc3ccccc3-c3sc4c(c3C(=O)O)CC(C)(C)CC4)cc2)NC(=O)O[C@H]2CO[C@@]3(C)OCC[C@@H]23)cc1,1.71,2.57,<0.1
COc1ccc(S(=O)(=O)N(CC(C)C)C[C@@H](O)[C@H](Cc2ccc(OC[C@@H]3COCC[C@@H]3c3sc4c(c3C(=O)O)CC(C)(C)CC4)cc2)NC(=O)O[C@H]2CO[C@@]3(C)OCC[C@@H]23)cc1,0.41,1.98,<0.1
COc1ccc(S(=O)(=O)N(CC2CCCC2)C[C@@H](O)[C@H](Cc2ccc(OCc3ccccc3-c3sc4c(c3C(=O)O)CC(C)(C)CC4)cc2)NC(=O)O[C@H]2CO[C@@]3(C)OCC[C@@H]23)cc1,0.933,2.18,<0.1
COc1ccc(S(=O)(=O)N(CC(C)C)C[C@@H](O)[C@H](Cc2ccc(OCc3ccc4ccccc4c3-c3sc4c(c3C(=O)O)CC(C)(C)CC4)cc2)NC(=O)O[C@H]2CO[C@@]3(C)OCC[C@@H]23)cc1,0.117,4.12,<0.1
COc1ccc(S(=O)(=O)N(CC(C)C)C[C@@H](O)[C@H](Cc2ccc(OCc3cc4ccccc4cc3-c3sc4c(c3C(=O)O)CC(C)(C)CC4)cc2)NC(=O)O[C@H]2CO[C@@]3(C)OCC[C@@H]23)cc1,0.117,7.46,<0.1
COc1ccc(S(=O)(=O)N(CC(C)C)C[C@@H](O)[C@H](Cc2ccc(NCc3cc(C(F)(F)F)ccc3-c3sc4c(c3C(=O)O)CC(C)(C)CC4)cc2)NC(=O)O[C@H]2CO[C@@]3(C)OCC[C@@H]23)cc1,0.455,2.39,<0.1
COc1ccc(S(=O)(=O)N(CC(C)C)C[C@@H](O)[C@H](Cc2ccc(NCc3ccc4ccccc4c3-c3sc4c(c3C(=O)O)CC(C)(C)CC4)cc2)NC(=O)O[C@H]2CO[C@@]3(C)OCC[C@@H]23)cc1,0.113,4.22,<0.1
COc1ccc(S(=O)(=O)N(CC(C)C)C[C@@H](O)[C@H](Cc2ccc(OCc3cc(F)ccc3-c3sc4c(c3C(=O)O)CC(C)(C)CC4)cc2)NC(=O)O[C@H]2CO[C@@]3(C)OCC[C@@H]23)cc1,1.09,1.76,<0.1
